Results deposited as PubChem BioAssay AID1224833 (University of Georgia, 2016)

Assay: 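Host factors restraining rotavirus as candidate antiviral genes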 (primary screen)
System: monkey MA104 kidney cells
Reagent: siRNA pool against human genes, 50 nM
Duration: 48 h knock-down before infection; read 24 h after infection
Challenge: infection with rotavirus strain RV3 two days after transfection; infectious dose for this stage not given
Measured: 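Rotavirus antigen per well by fluorescent immunoassay, normalised to non-targeting control wells on each plate and given as a standard z-score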
Direction: z-score vs non-targeting control: higher = more rotavirus replication than with non-targeting control
Active means: In these data the active calls have z-score vs non-targeting control at about -1 or lower, or at about 1 or higher
Meaning of the calls: active = z-score beyond 1 either way; inactive = z-score within 1 of zero
In all, the deposit lists about 12,000 reagents; shown is a part drawn at random. Over the whole deposit, about 5,600 (46%) got an active call. 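Active calls cover z-scores past 1 in both directions, so they include lowered as well as raised rotavirus replication.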

Target gene | PubChem SID | z-score vs non-targeting control | activity call
RAPGEF3 | SID329577140 | -0.318 | inactive
SNAI3 | SID329584005 | -1.62 | active
SAPCD2 | SID329581914 | -0.531 | inactive
NCKAP1L | SID329573951 | -2.66 | active
RAB3C | SID329582283 | -0.802 | inactive
KLC3 | SID329582944 | -1.24 | active
CFLAR | SID329576313 | 1.41 | active
POLR2J | SID329574904 | -1.35 | active
DHRS3 | SID329576502 | 1.86 | active
CDC26 | SID329583662 | -0.606 | inactive
ITPRID2 | SID329575491 | -2.12 | active
BRD10 | SID329583149 | 0.481 | inactive
MOV10L1 | SID329579277 | -0.725 | inactive
SEMA4C | SID329579459 | -1.09 | active
MBD6 | SID329582218 | -3.01 | active
ACBD7 | SID329584541 | -0.612 | inactive
SPINK2 | SID329575462 | -0.854 | inactive
NANP | SID329582829 | -1.66 | active
RUSF1 | SID329580664 | -0.675 | inactive
CNBD2 | SID329582839 | -0.686 | inactive
USF3 | SID329583478 | -0.215 | inactive
NFATC2IP | SID329581763 | 1.13 | active
FLRT3 | SID329578132 | -0.551 | inactive
FOXP2 | SID329582128 | 0.714 | inactive
GAS1 | SID329573722 | 0.777 | inactive
HAUS7 | SID329579749 | 0.716 | inactive
TEX15 | SID329579997 | -1.81 | active
MUTYH | SID329574511 | -1.44 | active
CDH18 | SID329573117 | -1.28 | active
RAD54L | SID329576111 | -0.651 | inactive
LRRC20 | SID329579649 | -0.475 | inactive
SETD4 | SID329579248 | -0.563 | inactive
CA13 | SID329584270 | 1.33 | active
BMP3 | SID329572929 | -1.47 | active
TAS2R1 | SID329578821 | -0.0438 | inactive
TSLIG1 | SID329584052 | -0.32 | inactive
LIX1 | SID329583282 | 0.389 | inactive
NUP85 | SID329581069 | 0.682 | inactive
SHD | SID329580113 | -0.622 | inactive
BICD1 | SID329572917 | -1.21 | active
ESAM | SID329581980 | 1.03 | active
RIDA | SID329577052 | -0.0156 | inactive
GYPB | SID329573903 | -0.749 | inactive
HNRNPL | SID329574006 | -0.0553 | inactive
SOX8 | SID329578769 | -1.89 | active
ATP1B2 | SID329572855 | 1.49 | active
MN1 | SID329574469 | -1.16 | active
MTA3 | SID329580259 | -0.123 | inactive
OR8U3 | SID329583502 | -1.56 | active
MIS18BP1 | SID329579690 | -0.625 | inactive
STH | SID329583667 | 0.0615 | inactive
STAMBP | SID329577275 | -2.32 | active
ING4 | SID329578934 | -0.182 | inactive
C1QL1 | SID329577405 | 0.248 | inactive
OSGIN1 | SID329578734 | -0.816 | inactive
AHNAK | SID329580810 | -0.748 | inactive
AKAP8L | SID329578454 | 1.84 | active
A1BG | SID329572647 | -0.742 | inactive
ARLN | SID329584491 | -1.54 | active
KIFAP3 | SID329577726 | 1.12 | active
ZBTB9 | SID329583598 | -1.62 | active
CCDC90B | SID329580477 | -0.308 | inactive
ARFGEF2 | SID329577242 | 0.463 | inactive
ZNF280B | SID329582835 | 1.39 | active
PAPLN | SID329581911 | -0.981 | inactive
PRMT2IP | SID329580080 | -2.38 | active
TMC8 | SID329582927 | 0.357 | inactive
NQO1 | SID329573404 | 1.97 | active
RHOA | SID329572810 | 1.26 | active
EXTL3 | SID329573588 | -0.639 | inactive
CADM1 | SID329578118 | 2.11 | active
TMEM196 | SID329583736 | -0.908 | inactive
GABARAP | SID329577648 | -1.74 | active
FAR2 | SID329579825 | 2.46 | active
LMNB2 | SID329581733 | -1.41 | active
OR14A16 | SID329583901 | -0.361 | inactive
CEMIP2 | SID329578112 | 1.65 | active
CD1E | SID329573049 | -0.477 | inactive
IRS2 | SID329576220 | 0.0333 | inactive
STARD13 | SID329581964 | -0.871 | inactive
RFX5 | SID329575118 | -0.8 | inactive
CYP1A2 | SID329573332 | 1.52 | active
GGA1 | SID329578307 | -1.51 | active
SNCA | SID329575412 | -1.45 | active
SEC61A2 | SID329579615 | -0.802 | inactive
XRCC4 | SID329575835 | 1.32 | active
FOXJ3 | SID329577705 | -1.32 | active
RASSF7 | SID329575994 | -0.403 | inactive
TCTN1 | SID329580910 | -0.745 | inactive
ZNF513 | SID329582660 | -0.548 | inactive
AMBN | SID329572753 | 2.14 | active
ESYT1 | SID329577947 | -1.21 | active
B4GALT6 | SID329576534 | -0.626 | inactive
FAM111A | SID329580509 | 1.98 | active
ATOSB | SID329581190 | -0.468 | inactive
ATP5F1D | SID329572865 | 1.48 | active
PFN3 | SID329584142 | -1.4 | active
RHEBL1 | SID329582415 | -0.431 | inactive
AK8 | SID329583141 | -0.916 | inactive
PHOX2A | SID329572821 | -1.23 | active
TOGARAM2 | SID329583264 | -0.699 | inactive
KRTAP10-8 | SID329584281 | -0.547 | inactive
ARG2 | SID329572809 | -2.36 | active
CTRL | SID329573316 | 1.76 | active
KLHL32 | SID329582224 | -0.732 | inactive
CARM1 | SID329577200 | 1.25 | active
NHERF2 | SID329576544 | 1.2 | active
C8B | SID329572966 | 1.16 | active
SHLD2 | SID329579316 | 0.12 | inactive
SLC4A11 | SID329581489 | 3.02 | active
